Pooled drug test results. Numbers come from NIAID ChemDB, via PubChem.

All rows: toxicity to cultured cells; read-out: CC50

CCn is the concentration with n% toxicity to the cells. Lines come from different laboratories, so protocols vary. An empty or dashed field is not shown.

Cc1ccc(-n2ncc3c(Nc4ccc(F)c(Cl)c4)ncnc32)c(C)c1 ; cells: HUH 9B ; result: 22 µM
O=C(O)P(=O)(O)O ; cells: HSB-2 ; method: neutral red ; result: >166 µM
COc1ccc(NC(=O)NCC2CCc3ccccc3N2)c(OC)c1 ; cells: PBMC ; result: 50 µM
CCOc1ccc(Nc2ncnc3c2cnn3-c2ccc(Cl)cc2Cl)cc1 ; cells: HUH 9B ; result: 23 µM
COc1cc(O)c2c(c1)C(=O)C(CC(C)=O)=C(C)C2=O ; cells: MDA-MB-231 ; method: MTT ; result: 95.6 µg/mL
Cc1ccc(Nc2ncnc3c2cnn3Cc2ccccc2)c(C)c1 ; cells: HUH 9B ; result: 46 µM
CCOC(=O)C1=C(CN2CC(F)(F)[C@@H]3[C@H]2CON3C[C@H](OC)C(C)(C)C(=O)O)NC(c2nccs2)=N[C@H]1c1ccc(F)c(F)c1F ; cells: HepG2.2.15 ; method: WST / absorbance ; result: >100 µM
O=C1NC(=Nc2ccc(F)c(Cl)c2)S/C1=C\c1ccc(-c2ccc(C(=O)O)c(O)c2)o1 ; cells: BAE ; method: MTT ; result: 25 µM
NC1CC12C1CC3CC(C1)CC2C3 ; cells: HEF ; result: 80 µg/mL
C[C@H](Cc1ccc(OCCCN2CCOCC2)c(OCCCN2CCOCC2)c1)[C@@H](C)Cc1ccc(OCCCN2CCOCC2)c(OCCCN2CCOCC2)c1 ; cells: COS ; result: 1.79 µM
S=C(Nc1ccccc1)Nc1ccc2c(c1)Cc1cc(Br)ccc1-2 ; cells: Ava5-EG(delta4AB)SEAP ; method: MTS ; result: >1 µM
O=C(NCCc1ccc2c(n1)NCCC2)Nc1ccc(OCCN2CCOCC2)c(F)c1 ; cells: PBMC ; result: 50 µM
COC1=CC(=O)c2c(O)c(C)c3c(c2C1=O)OC(C)C3 ; cells: Panc-1 ; method: MTT ; result: 97.6 µg/mL
CC(C)Nc1nc2cc(Cl)c(Cl)cc2n1[C@H]1O[C@@H](CO)[C@H](O)[C@@H]1O ; cells: CBL ; result: 70 µM
CCOC(=O)C1=C(CN2CC(F)(F)[C@@H]3[C@H]2CON3C[C@H](OC(F)F)C(C)(C)C(=O)O)NC(c2nccs2)=N[C@H]1c1cccc(F)c1C ; cells: HepG2.2.15 ; method: WST / absorbance ; result: 11.9 µM
C[C@@]1(O)[C@H](O)[C@@H](CO)O[C@H]1n1cnc2c(N)ncnc21 ; cells: HBI10A ; result: 100 µM
NC(N)=NCCCCC(=O)NCCN1CCC(NC(=O)C(=O)Nc2ccc(Cl)cc2)CC12CCCCC2 ; cells: PM1 ; method: WST ; result: 225 µM
CCCNC(=S)Nc1ccc2c(c1)Cc1cc(Br)ccc1-2 ; cells: Ava5-EG(delta4AB)SEAP ; method: MTS ; result: >1 µM
CSc1ccccc1NC(=O)NCCc1ccc2c(n1)NCCC2 ; cells: PBMC ; result: 6.3 µM
CCOC(=O)C1=C(CN2CC(F)(F)[C@H]3[C@@H]2CCN3C[C@@H](F)C(C)(C)C(=O)O)NC(c2nc(C)cs2)=N[C@H]1c1cccc(F)c1C ; cells: HepG2.2.15 ; method: WST / absorbance ; result: 20.8 µM
NC(N)=NCCN(CCN=C(N)N)CCN1CCC(NC(=O)C(=O)Nc2ccc(Cl)cc2)CC12CCCCC2 ; cells: PM1 ; method: WST ; result: 105 µM
S=C(NCCCc1ccccc1)Nc1ccc2c(c1)Cc1cc(Br)ccc1-2 ; cells: Ava5-EG(delta4AB)SEAP ; method: MTS ; result: >1 µM
O[C@H](c1cc(C(F)(F)F)nc2c(C(F)(F)F)cccc12)[C@H]1CCCCN1 ; cells: HepG2-A16 ; method: MTT ; result: 25.6 µM
CCc1ccc(CCN=C2NC(=O)/C(=C/c3ccc(-c4ccc(C(=O)O)c(O)c4)o3)S2)cc1 ; cells: HT-29 ; method: MTT ; result: 26 µM
O=C(NCCc1ccc2c(n1)NCCC2)Nc1ccc(F)c(F)c1F ; cells: PBMC ; result: 24 µM
OC[C@H]1O[C@@H](n2c(Br)nc3cc(Cl)c(Cl)cc32)[C@H](O)[C@@H]1O ; cells: CBL ; method: neutral red ; result: >109 µM
C1CN(CC2CC2)C2(C1)C1CC3CC(C1)CC2C3 ; cells: HEF ; result: >200 µg/mL
C[C@H](Cc1ccc(OCCN2CCCCC2)c(OCCN2CCCCC2)c1)[C@@H](C)Cc1ccc(OCCN2CCCCC2)c(OCCN2CCCCC2)c1 ; cells: COS ; result: 3.83 µM
N#CCN1CCC(NC(=O)C(=O)Nc2ccc(Cl)cc2)CC12CCCCC2 ; cells: PM1 ; method: WST ; result: 47 µM
C[C@H](Cc1ccc(OC(=O)N2CCCCC2)c(OC(=O)N2CCCCC2)c1)[C@@H](C)Cc1ccc(OC(=O)N2CCCCC2)c(OC(=O)N2CCCCC2)c1 ; cells: COS ; result: 5.53 µM
C1CNC2(C1)C1CC3CC(C1)CC2C3 ; cells: HEF ; result: >50 µg/mL
COc1ccc2[nH]c(=O)c(CN(Cc3cccnc3)S(=O)(=O)c3cccc4nsnc34)cc2c1 ; cells: MOLT-4 ; method: MTT ; result: >1 µM
CCN(CC)CCNc1cc(C)nc2c1ccc1c2ccc2c(NCCN(CC)CC)cc(C)nc21 ; cells: Macrophage line RAW 264.7 ; method: MTT ; result: 0.00332 µM
O=C(Nc1ccc2c(c1)OCO2)C(=O)NC1CCNC2(CCCCC2)C1 ; cells: PM1 ; method: WST ; result: 211 µM
Fc1ccc(-n2ncc3c(NCCc4c[nH]c5ccccc45)ncnc32)c(F)c1 ; cells: HUH 9B ; result: 19 µM
N=C(N)N1CCC(NC(=O)C(=O)Nc2ccc(Cl)cc2)CC12CCCCC2 ; cells: PM1 ; method: WST ; result: 48 µM
NC(=S)Nc1ccc2c(c1)-c1ccccc1C2=O ; cells: Ava5-EG(delta4AB)SEAP ; method: MTS ; result: >1 µM
O=C1NC(=NCCc2ccc(Cl)c(Cl)c2)S/C1=C\c1ccc(-c2ccc(C(=O)O)c(O)c2)o1 ; cells: BAE ; method: MTT ; result: >100 µM
Cc1ccc(-n2ncc3c(Nc4cccc(Cl)c4)ncnc32)c(C)c1 ; cells: HUH 9B ; result: 30 µM
CCOC(=O)C1=C(CN2CC(F)(F)[C@@H]3[C@H]2CON3C[C@H](OC)C(C)(C)C(=O)O)NC(c2nc(C)cs2)=N[C@H]1c1cccc(F)c1C ; cells: HepG2.2.15 ; method: WST / absorbance ; result: >50 µM
CNCC1CC12C1CC3CC(C1)CC2C3 ; cells: HEF ; result: 50 µg/mL
Cc1ccc(-n2ncc3c(Nc4cccc(Br)c4)ncnc32)c(C)c1 ; cells: HUH 9B ; result: 30 µM
COc1cc(O)c2c(c1O)C1O[C@]3(C)C[C@H]1[C@@H](CO3)C2=O ; cells: MDA-MB-231 ; method: MTT ; result: 64.2 µg/mL
CCOc1ccc(Nc2ncnc3c2cnn3-c2ccccc2Cl)cc1 ; cells: HUH 9B ; result: 46 µM
NC(=S)Nc1cccc(NCCCCc2ccccc2)c1 ; cells: Ava5-EG(delta4AB)SEAP ; method: MTS ; result: >1 µM
COc1ccccc1CNC(=O)NCCc1ccc2c(n1)NCCC2 ; cells: PBMC ; result: 50 µM
c1ccc(-n2ncc3c(NCCc4c[nH]c5ccccc45)ncnc32)cc1 ; cells: HUH 9B ; result: 25 µM

The last 3 rows once more:

SMILES | cells | method | result
NC(=S)Nc1cccc(NCCCCc2ccccc2)c1 | Ava5-EG(delta4AB)SEAP | MTS | >1 µM
COc1ccccc1CNC(=O)NCCc1ccc2c(n1)NCCC2 | PBMC |  | 50 µM
c1ccc(-n2ncc3c(NCCc4c[nH]c5ccccc45)ncnc32)cc1 | HUH 9B |  | 25 µM